## Share of PSTVd loop 15 variants by leaf site

Data from the supplement of Wu et al. 2024, doi:10.1371/journal.ppat.1012142.

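A pool of all variants was put on leaves of three Nicotiana benthamiana plants. Progeny were sequenced from the inoculated region (day 5), the margin of the inoculated leaf (day 10) and systemic leaves (day 12).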

Region: loop 15 of PSTVd (intermediate strain), upper and lower strand joined, each 5' to 3', the first 7 letters being the upper strand, closing pairs included. Wild type: GGAAACCGCUACUAC. Varied positions (N): GGAAACCGNNNNNNC.

Values are reads per thousand in the sample; higher means more abundant, 0 means not found. Each value is the mean of three plants. "Pool" is the share in the plasmid pool used as inoculum, on the same scale. The inoculated region was read from the minus strand, the other sites from the plus strand.

For GGAAACCGUGUAAGC (pool 0.336) the result was inoculated region 0.0867; leaf margin 0.00668; systemic leaves 0. GGAAACCGCCGCAAC (pool 0.256) gave inoculated region 0.0741; leaf margin 0.0148; systemic leaves 0.00537. GGAAACCGAAGUUCC (pool 0.256) gave inoculated region 0.0697; leaf margin 0.0128; systemic leaves 0. For GGAAACCGGGUUAUC (pool 0.288) the result was inoculated region 0.118; leaf margin 0.0134; systemic leaves 0. GGAAACCGUGAAUCC (pool 0.208) gave inoculated region 0.398; leaf margin 0.0989; systemic leaves 0.0107.

GGAAACCGCCGGCCC (pool 0.208) read inoculated region 0.260; leaf margin 0.00742; systemic leaves 0. GGAAACCGACGGUCC (pool 0.336) read inoculated region 0.0570; leaf margin 0.00539; systemic leaves 0. With GGAAACCGGGCCUGC (pool 0.176) the assay gave inoculated region 0.0733; leaf margin 0.0162; systemic leaves 0. With GGAAACCGCCGGUCC (pool 0.208) the assay gave inoculated region 0.267; leaf margin 0.124; systemic leaves 0.0745. With GGAAACCGGCCCGGC (pool 0.144) the assay gave inoculated region 0.0806; leaf margin 0.00668; systemic leaves 0.

For GGAAACCGUUACUCC (pool 0.208) the result was inoculated region 0.316; leaf margin 0.118; systemic leaves 0.0638. With GGAAACCGGAUGCUC (pool 0.256) the assay gave inoculated region 0.102; leaf margin 0.00539; systemic leaves 0. For GGAAACCGGUGGUUC (pool 0.224) the result was inoculated region 0.239; leaf margin 0.106; systemic leaves 0.0161. With GGAAACCGUGGUUGC (pool 0.224) the assay gave inoculated region 0.0911; leaf margin 0.00742; systemic leaves 0. GGAAACCGCGUACCC (pool 0.336) read inoculated region 0.109; leaf margin 0.0175; systemic leaves 0.

GGAAACCGAUUCUUC (pool 0.256) gave inoculated region 0.105; leaf margin 0; systemic leaves 0. GGAAACCGCCUUGCC (pool 0.240) read inoculated region 0.0976; leaf margin 0.0128; systemic leaves 0. GGAAACCGGGAAUAC (pool 0.160) gave inoculated region 0.435; leaf margin 0.0772; systemic leaves 0.0973. GGAAACCGUUCGCCC (pool 0.192) gave inoculated region 0.123; leaf margin 0.0336; systemic leaves 0. GGAAACCGUCAGGAC (pool 0.208) gave inoculated region 0.525; leaf margin 0.126; systemic leaves 0.0391.

For GGAAACCGUAACGCC (pool 0.224) the result was inoculated region 0.0993; leaf margin 0.0195; systemic leaves 0. For GGAAACCGCUAGUCC (pool 0.224) the result was inoculated region 0.371; leaf margin 0.128; systemic leaves 0.0805. GGAAACCGAAUACAC (pool 0.256) gave inoculated region 0.340; leaf margin 0.0308; systemic leaves 0.0107. For GGAAACCGGGCGGUC (pool 0.256) the result was inoculated region 0.535; leaf margin 0.0187; systemic leaves 0.00537. GGAAACCGUACCAAC (pool 0.224) gave inoculated region 0.101; leaf margin 0; systemic leaves 0.

GGAAACCGGCCUAAC (pool 0.224) read inoculated region 0.0919; leaf margin 0.00742; systemic leaves 0.00760. With GGAAACCGCUGUUUC (pool 0.176) the assay gave inoculated region 0.0769; leaf margin 0.00742; systemic leaves 0. For GGAAACCGCCUUUCC (pool 0.176) the result was inoculated region 0.0343; leaf margin 0.0275; systemic leaves 0. GGAAACCGGUGCCCC (pool 0.208) read inoculated region 0.0848; leaf margin 0; systemic leaves 0.00537. With GGAAACCGGGGGGGC (pool 0.192) the assay gave inoculated region 0.0924; leaf margin 0.0200; systemic leaves 0.00537.

For GGAAACCGCUUGCAC (pool 0.192) the result was inoculated region 0.0658; leaf margin 0.0321; systemic leaves 0. With GGAAACCGCGGUGCC (pool 0.144) the assay gave inoculated region 0.0802; leaf margin 0; systemic leaves 0.

Sequences that differ at fixed positions probably stem from PCR or sequencing errors, and defective variants can be carried along by functional ones. Wild type was 33.9 per thousand in the pool and the most common sequence in every sample (inoculated region 202, 200, 159; leaf margin 724, 746, 710; systemic leaves 856, 883, 880). Samples held 43,870 to 66,106 reads, so the smallest values rest on one or two reads.